Experiments:
[1] = target: T1, His6-lipase domain of Tle (MODIC-modified) (Enterobacter cloacae, UniProt A0A0M7ENE2); assay: fluorogenic phospholipase A2 assay; type: biochemical; conditions: DOPC/DOPG liposomes, 50 mM Tris-HCl pH 7.5, 100 mM NaCl, 1 mM CaCl2; 600 nM enzyme, 1.5 µM substrate
T1 construct: gene NCTC10005_04014; C-terminal lipase domain Thr172-Ala472, N-terminal His6

[2] = target: T2, His6-Tle (modified, full-length) (Enterobacter cloacae, UniProt A0A0M7ENE2); assay: fluorogenic phospholipase A2 assay; type: biochemical; conditions: DOPC/DOPG liposomes, 50 mM Tris-HCl pH 7.5, 100 mM NaCl, 1 mM CaCl2; 600 nM enzyme, 1.5 µM substrate
T2 construct: gene NCTC10005_04014; full-length, N-terminal His6

[3] = target: T3, His6-lipase•∆ss-Tli complex (Enterobacter cloacae, UniProt A0A0M7ENE2); assay: SDS-PAGE crosslinking in vitro; type: biochemical; conditions: covalent; 37 °C, 20 mM sodium phosphate pH 7.0; thermolabile crosslink
T3 construct: gene NCTC10005_04014; made in E. coli; 7UBZ is the chymotrypsin-treated complex (His340-Leu445 removed); with T6SS lipase immunity protein Tli (ankyrin repeat domain-containing protein)

[4] = target: T3, His6-lipase•∆ss-Tli complex; assay: crystal structure of MODIC crosslink; SDS-PAGE crosslinking in vitro; type: binding; conditions: covalent; Arg180-Lys461 imidazolium crosslink (MODIC) in lipase chain; needs bound Tli; structure formed with endogenous methylglyoxal in E. coli

CCCCCCCCCCCCCCCC(=O)OC[C@H](COP(=O)(O)OCCNC(=O)CCCCCNc1ccc([N+](=O)[O-])cc1[N+](=O)[O-])OC(=O)CCCCC1=[N+]2C(=Cc3c(C)cc(C)n3[B-]2(F)F)C=C1 [PED6]
fluorogenic phospholipase A2 assay [1]: modified lipase catalyzes phospholipase A1 and A2 reactions | fluorogenic phospholipase A2 assay [2]: modified form of full-length His6-Tle also exhibits phospholipase A1 and A2 activities

O=CC=O [glyoxal]
SDS-PAGE crosslinking in vitro [3]: The lipase can also be crosslinked with glyoxal at lower efficiency

CC(=O)C=O [methylglyoxal]
crystal structure of MODIC crosslink; SDS-PAGE crosslinking in vitro [4]: MODIC fits well into the electron density bridging Arg180 and Lys461

— article PMC11470151, “Advanced glycation end-product crosslinking activates a type VI secretion system phospholipase effector protein” (Nature Communications, 2024)
